Results of unrelated studies side by side (data: NIAID ChemDB).

Common to all: tests in culture

An empty or dashed field is not shown.

structure	species	strain	cell line	read by	setting	measure	dose	result
Cc1c(NCCCO)c(F)cc2c(=O)c(C(=O)O)cn(-c3cc(N)c(F)cc3F)c12	Staphylococcus aureus	27 isolates				Mean MIC		0.025 µg/mL
CC(C)CN(C[C@@H](O)[C@H](Cc1ccccc1)NC(=O)CN1C(=O)c2ccccc2C1=O)S(=O)(=O)c1ccc(Br)cc1	SIV		CEM	MTT		EC50		3.5 µM
CC(C)(O)c1cn(-c2ccc([N+](=O)[O-])cc2)nn1	Candida parapsilosis	URM 4889		broth dilution		inhibition	2048 µg/mL	0%
O=C(CCc1ccccc1)NC(=O)c1ccccc1O	Toxoplasma gondii		Human foreskin fibroblasts			MIC50		>0.25 µM
CCOC(=O)c1sc(SC)cc1-c1ccc(Cl)cc1	Trichophyton mentagrophytes	A-280				MIC		>100 µg/mL
CCC1C(c2ccccc2)OC(c2ccccc2)CC12NNC(=S)N2	Rhizopus spp.					MIC		100 µg/mL
CCc1c(O)c(=O)ccn1CC	Pneumocystis carinii		Human fibroblasts		7 d	EC50		<72 µM
CCCc1cc(=O)oc2cc(OS(=O)(=O)c3ccc(C)cc3)cc(O)c12	Measles virus	NS2	CV-1	cytopathic effect		EC50		0.5 µg/mL
[N-]=[N+]=N[C@H]1[C@@H](F)[C@H](N2C=CC(N)NC2=O)O[C@@H]1CO	Sindbis virus		VERO B	cytopathic effect		EC50		>400 µg/mL
OC[C@@H]1C[C@@H](O)[C@H](n2cnc3c(NC4CCCCCC4)cc(Cl)nc32)O1	Maedi-visna virus			cytopathic effect		EC50		0.15 µM
O=C(NC(=O)c1ccc(Cl)cc1Cl)c1ccccc1O	Toxoplasma gondii		Human foreskin fibroblasts			MIC50		>1 µM
[Ca+2]	Pneumocystis carinii		Human fibroblasts		7 d	EC50		>30 µM
CCOC(=O)c1sc(SC)c(C(=O)OCC)c1O	Trichophyton mentagrophytes	A-280				MIC		>100 µg/mL
CCCc1cc(=O)oc2cc(OS(=O)(=O)c3ccc(C)cc3)cc(OS(=O)(=O)c3ccc(C)cc3)c12	Measles virus	MO2	CV-1	cytopathic effect		EC50		3 µg/mL
O=C(NO)c1ccc(O)c(O)c1	Mouse cytomegalovirus	Drug-resistant		plaque count		EC50		28.88 µM
Cn1cc(C(=O)NCc2ccc(Cl)cc2)c(=O)c2cc(CN3CCOCC3)ccc21	Varicella zoster virus	SL varicella isolate	HFF	plaque count		inhibition	3.4 µM	90%
Nc1nc2c(ncn2[C@H]2C[C@H](F)[C@@H](CO)O2)c(=O)[nH]1	Duck hepatitis B virus		Primary duck hepatocytes			EC50		0.05 µM
Nc1nccc2c1ncn2[C@@H]1CC[C@@H](O)[C@H]1O	Parainfluenza virus	TYPE 3				MIC		0.2 µg/mL
Cc1[nH]n(C(=O)c2sc3ccc(Cl)cc3c2Cl)c(=O)c1N=Nc1c(Br)cc(Br)cc1Br	Pseudomonas aeruginosa	ATCC 27853		agar diffusion / agar		zone	40 µg/mL	10 mm
CC1(C(=O)O)CCC2(C)CCC3(C)C(=CC(=O)C4C5(C)CCC(OC(=O)C6CCCCC6C(=O)O)C(C)(C)C5CCC43C)C2C1	Adenovirus	TYPE 5		virus yield		inhibition	10 µM	25%
Nc1ncnc2c1c(Br)cn2COCCO	Guinea pig herpesvirus	Lymphotropic	GPE	virus yield		EC50		<160 µg/mL
CN(C)c1cccc2c(S(=O)(=O)Nc3ccc(NC(=O)C(C)(C)CO)cc3)cccc12	Mouse cytomegalovirus	BAY 38-4766-resistant		plaque count		EC50		28.3 µM
Nc1nc(Cl)cc(NCC2(CO)CC(c3ccccc3)C2)n1	Influenza B virus	B/GIFU/2/73	MDCK	plaque count		EC50		2.8–3.8 µM
CCC(CC)O[C@@H]1C=C(C(=O)O)C[C@H](N)[C@H]1NC(C)=O	Influenza A virus	Influenza A/Sydney/05/97 (H3N2)	MDCK			EC50		0.31 µM
OO	Aspergillus terreus	UAB698		agar		MIC99		2000 µM
COCCn1ccc(=O)c(O)c1C	Pneumocystis carinii		Human fibroblasts		7 d	inhibition	72 µM	81%
Cn1nc(Cc2ccc(Cl)cc2)c2ccccc2c1=O	Cryptococcus neoformans	Clinical isolate (IM 031631)		broth dilution		MIC50		15.6 µg/mL
CCCc1cc(=O)oc2c3c(c4c(c12)OC(C)(C)[C@H](O)[C@@H]4O)O[C@H](C)[C@@H](C)[C@@H]3O	Measles virus	Chicago	CV-1	cytopathic effect		EC50		5 µg/mL
CC(C)CN(C[C@@H](O)[C@H](Cc1ccccc1)NC(=O)COc1ccc2ccccc2c1)S(=O)(=O)c1ccc(Br)cc1	SIV		CEM	MTT		EC50		12.3 µM
CCOC(=O)c1sc2cc(-c3ccc(OC)cc3)oc(=O)c2c1N	Trichophyton mentagrophytes	A-280				MIC		>100 µg/mL
CC(=O)Nc1ccc(C(=O)O)cc1	Pneumocystis carinii					inhibition	10 µM	48%
Cc1c(N)c(F)cc2c(=O)c(C(=O)O)cn(-c3cc(N)c(F)cc3F)c12	Staphylococcus aureus	27 isolates				Mean MIC		0.01 µg/mL
S=C1NNC2(CC(c3ccccc3)OC(c3ccccc3)C2)N1	Rhizopus spp.					MIC		100 µg/mL
COC(=O)CCCCCCC(=O)Nc1ccc(C(=O)NC(=O)c2ccccc2O)cc1	Toxoplasma gondii		Human foreskin fibroblasts			MIC50		>1 µM
CC(=O)ONc1ccc(S(=O)(=O)N(Cc2ccccc2)C[C@@H](O)[C@H](Cc2ccccc2)NC(=O)CCN2C(=O)c3ccccc3C2=O)cc1	SIV		CEM	MTT		EC50		5.4 µM
CC(=O)N1N=C(c2sc3ccc(Cl)cc3c2Cl)OC1c1ccc(O)cc1	Pseudomonas aeruginosa	ATCC 27853		agar diffusion / agar		zone	40 µg/mL	12 mm
OC[C@@H]1CC[C@H](n2cnc3c(NC4CC4)nc(Cl)nc32)O1	Maedi-visna virus			cytopathic effect		EC50		0.15 µM
C=CCc1ccc(OC)c(OC)c1	Candida albicans	2261		turbidity		MIC90		350 µg/mL
O=c1[nH]c(=O)n([C@H]2C[C@H](O)[C@@H](CO)O2)cc1Br	Murine polyoma virus		ME	hybridisation		inhibition	0.012 µg/mL	0%
Nc1nccc2c1ncn2[C@@H]1C=C(CO)[C@@H](O)[C@H]1O	Semliki Forest virus					MIC		>400 µg/mL
CC(C)C1=C2[C@H]3CC[C@@H]4[C@@]5(C)CC[C@H](OC(=O)CC(C)(C)C(=O)O)C(C)(C)[C@@H]5CC[C@@]4(C)[C@]3(C)CC[C@@]2([C@@H](O)CN(CCN(C)C)Cc2ccc(Cl)cc2)CC1=O	SIV	MAC239	CEM-SS + MAGIC-5A	syncytia / visual reading / single cycle		EC50		>0.1 µM
CC(C)(O)c1cn(-c2cccc3ccccc23)nn1	Candida tropicalis	URM 4790				inhibition	2048 µg/mL	0%
CCN=C1NC2C(OC(CO)C(O)C2O)S1	Kaposi sarcoma virus		HEK 293	flow cytometry		inhibition	10 µM	44%
Cc1c(O)c(=O)ccn1C	Pneumocystis carinii		Human fibroblasts		7 d	EC50		<72 µM
Nc1nc2c(ncn2COC(CO)CO)c(=O)[nH]1	Human cytomegalovirus	AD169		plaque count		EC50		3.8 µM
Nc1nccc2c1ncn2[C@@H]1C=C[C@@H](O)[C@H]1O	Reovirus	TYPE 1				MIC		2 µg/mL
Nc1ncc(Br)c(NCC2(CO)CC(CCc3ccccc3)C2)n1	Influenza B virus	B/GIFU/2/73	MDCK	plaque count		EC50		0.13–0.26 µM
C=Cc1cn(OC(CO)CO)c(=O)[nH]c1=O	Duck hepatitis B virus					EC50		0.3–1 µg/mL
CN[C@H]1C[C@@H](n2cnc3c(N)ncnc32)[C@H](O)[C@@H]1O	Pichinde virus		HFF			EC50		>100 µg/mL
CCOC(=O)c1sc(SC)c(C#N)c1O	Trichophyton mentagrophytes	A-280				MIC		50 µg/mL
Nc1nc2c(ncn2CCC(CO)CO)c(=O)[nH]1	Human herpesvirus 7	SB	HUMAN CORD BLOOD CELLS	antigen		inhibition	50 µM	29%
S=C1NN(c2ccccc2)C2(CC(c3ccccc3)OC(c3ccccc3)C2)N1	Rhizopus spp.					MIC		12.5 µg/mL
COc1cc(C2OC(c3sc4ccc(Cl)cc4c3Cl)=NN2C(C)=O)ccc1O	Pseudomonas aeruginosa	ATCC 27853		agar diffusion / agar		zone	40 µg/mL	20 mm
Nc1ncnc2c1ncn2[C@@H]1C=C[C@@H](O)[C@H]1O	Parainfluenza virus	TYPE 3				MIC		2 µg/mL
Cc1ccc(-n2cc(C(C)(C)O)nn2)cc1C	Candida albicans	URM 4990		broth dilution		inhibition	2048 µg/mL	0%
CSc1cc(-c2ccc(Cl)cc2)c(C(=O)O)s1	Trichophyton mentagrophytes	A-280				MIC		>100 µg/mL
Nc1nc2c(ncn2COCCOP(=O)(O)OP(=O)(O)OP(=O)(O)O)c(=O)[nH]1	Duck hepatitis B virus		Primary duck hepatocytes			EC50		>10 µM
CCOC(=O)c1sc(SC)c(C(=O)OC)c1O	Trichophyton mentagrophytes	A-280				MIC		6.25 µg/mL
Nc1nccc2c1ncn2[C@@H]1C[C@H](CO)[C@@H](O)[C@H]1O	Sindbis virus					MIC		>400 µg/mL
Nc1ccn([C@@H]2O[C@H](CO)[C@@H](F)[C@H]2O)c(=O)n1	Semliki Forest virus		VERO B	cytopathic effect		EC50		>400 µg/mL
CC[C@H]1OC(=O)[C@H](C)C(=O)[C@H](C)[C@@H](O[C@@H]2O[C@H](C)C[C@H](N(C)C)[C@H]2O)[C@@]2(C)C[C@@H](C)C(=NC(C)=O)[C@H](C)[C@@H](OC/C(=N\OCc3ccc(-n4cccn4)nc3)CO2)[C@]1(C)O	Haemophilus influenzae	25 strains				MIC90		16 µg/mL
Cc1[nH]n(C(=O)c2sc3ccc(Cl)cc3c2Cl)c(=O)c1N=Nc1ccc(Cl)cc1Cl	Pseudomonas aeruginosa	ATCC 27853		agar diffusion / agar		zone	40 µg/mL	18 mm
CCCc1cc(=O)oc2cc(OC(=O)C(C)(C)C)c3c(c12)OC(C)(C)C=C3	Measles virus	BIL	CV-1	cytopathic effect		EC50		0.1 µg/mL
OC[C@H]1O[C@@H](n2c(Br)nc3cc(Cl)c(Cl)cc32)[C@H](O)[C@@H]1O	Guinea pig cytomegalovirus					EC50		4.7 µM
CC(C)(O)c1cn(-c2ccccc2)nn1	Candida parapsilosis	URM 4607		broth dilution		inhibition	2048 µg/mL	0%
CC1(C)N=C(N)N=C(N)N1OCCCOc1cc(Cl)c(Cl)cc1Cl	Mycobacterium avium complex	1960				MIC		1 µg/mL
CCOC(=O)c1sc(SC)cc1-c1ccc(Br)cc1	Trichophyton mentagrophytes	A-280				MIC		>100 µg/mL
Nc1nc2c(ncn2COC(CO)COP(=O)(O)OP(=O)(O)OP(=O)(O)O)c(=O)[nH]1	Duck hepatitis B virus		Primary duck hepatocytes			EC50		4 µM
Cc1c(NCCO)c(F)cc2c(=O)c(C(=O)O)cn(-c3cc(N)c(F)cc3F)c12	Staphylococcus aureus	27 isolates				MIC90		0.03 µg/mL
[N-]=[N+]=N[C@H]1[C@@H](F)[C@H](n2cnc3c(N)ncnc32)O[C@@H]1CO	Semliki Forest virus		VERO B	cytopathic effect		EC50		>200 µg/mL

A second listing of 10 rows from above:

structure,species,strain,cell line,read by,setting,measure,dose,result
CC[C@H]1OC(=O)[C@H](C)C(=O)[C@H](C)[C@@H](O[C@@H]2O[C@H](C)C[C@H](N(C)C)[C@H]2O)[C@@]2(C)C[C@@H](C)C(=NC(C)=O)[C@H](C)[C@@H](OC/C(=N\OCc3ccc(-n4cccn4)nc3)CO2)[C@]1(C)O,Haemophilus influenzae,25 strains,,,,MIC90,,16 µg/mL
CN(C)c1cccc2c(S(=O)(=O)Nc3ccc(NC(=O)C(C)(C)CO)cc3)cccc12,Mouse cytomegalovirus,BAY 38-4766-resistant,,plaque count,,EC50,,28.3 µM
Nc1ncc(Br)c(NCC2(CO)CC(CCc3ccccc3)C2)n1,Influenza B virus,B/GIFU/2/73,MDCK,plaque count,,EC50,,0.13–0.26 µM
[N-]=[N+]=N[C@H]1[C@@H](F)[C@H](N2C=CC(N)NC2=O)O[C@@H]1CO,Sindbis virus,,VERO B,cytopathic effect,,EC50,,>400 µg/mL
CC(C)C1=C2[C@H]3CC[C@@H]4[C@@]5(C)CC[C@H](OC(=O)CC(C)(C)C(=O)O)C(C)(C)[C@@H]5CC[C@@]4(C)[C@]3(C)CC[C@@]2([C@@H](O)CN(CCN(C)C)Cc2ccc(Cl)cc2)CC1=O,SIV,MAC239,CEM-SS + MAGIC-5A,syncytia / visual reading / single cycle,,EC50,,>0.1 µM
Nc1ccn([C@@H]2O[C@H](CO)[C@@H](F)[C@H]2O)c(=O)n1,Semliki Forest virus,,VERO B,cytopathic effect,,EC50,,>400 µg/mL
Nc1nccc2c1ncn2[C@@H]1C=C(CO)[C@@H](O)[C@H]1O,Semliki Forest virus,,,,,MIC,,>400 µg/mL
CCN=C1NC2C(OC(CO)C(O)C2O)S1,Kaposi sarcoma virus,,HEK 293,flow cytometry,,inhibition,10 µM,44%
CCC1C(c2ccccc2)OC(c2ccccc2)CC12NNC(=S)N2,Rhizopus spp.,,,,,MIC,,100 µg/mL
CCCc1cc(=O)oc2cc(OS(=O)(=O)c3ccc(C)cc3)cc(O)c12,Measles virus,NS2,CV-1,cytopathic effect,,EC50,,0.5 µg/mL

Inhibition is in % at the dose shown (toxicity tests: loss of growth or viability). Lines come from different laboratories, so protocols vary. Zones are inhibition diameters on agar. a–b is a range or a potency band. ECn is the concentration giving n% inhibition of infection, replication or growth. MIC50, MIC90 and the like: level of inhibition, or share of isolates inhibited.